The values below come from patent US9476087B2, “Methods and compounds for detecting beta-lactamase activity” (Nanyang Technological University, priority 2008, dated 2016).

The data set is described as follows: Interaction of free dithiol linkers with suspension of gold nanoparticles. As to conditions: linkers 5 mm as printed.

As to “di-2-mercaptoethylamine-conjugated 1,2-bis(2-aminoethoxy)ethane”, the “binding of free dithiol linker to gold nanoparticles” value is given as “rapid, occurring within seconds”.

As for “di-4-aminothiolphenol-conjugated 1,2-bis(2-aminoethoxy)ethane”, the “binding of free dithiol linker to gold nanoparticles” value is given as “rapid, occurring within seconds”.
